Stoichiometry N data for 1 substance are collected here from publication PMC4388271 (Acta Crystallographica Section D: Biological Crystallography, 2015).

The assay deals with TesB from Yersinia pestis with the Glu18-to-Arg18 mutation (Yersinia pestis). Kind of assay: SEC; size-exclusion column with a standard curve; 50 mM Tris pH 8.0, 125 mM NaCl.

Broadly, the stoichiometry N is a count of units in the complex or per binding partner. “TesB from Yersinia pestis with the Glu18-to-Arg18 mutation (enzyme)”: the stoichiometry N turned out to be 2.
